Pooled drug test results. Numbers come from NIAID ChemDB, via PubChem.

Shared fields: growth or infection tests; species: HIV-1; method: syncytia; measure: EC50

Lines come from different laboratories, so protocols vary. ECn: concentration that inhibits the pathogen or its effect by n%. Blank or dashed fields: not listed here.

compound | strain or isolate | cell line | mutations | result
COc1ccc(NC(=O)C2=C(C)OCCS2)cc1OCC=C(Cl)Cl | TSAO-m3T-resistant (RT E138K) | CEM | RT-E138K | 10 µg/mL
CSc1ccc(NC(=S)OC(C)C)cc1C(=O)OC(C)C |  | CEM | RT-E138K | 2.229 µM
C/C(Cl)=C/COc1cc(NC(=S)c2ccoc2C)ccc1Cl | TIBO R82913-resistant (RT K103N) | CEM | RT-K103N | 0.09 µg/mL
CCCCCCCCC(=O)N(CCCCCCCCCCC(=O)O)CC(O)C(O)C(O[C@@H]1O[C@H](CO)[C@H](O)[C@H](O)[C@H]1O)C(O)CO | LAI | C8166 |  | >284 µM
O=C(O)c1cccc(Cc2cccc(C(=O)O)c2O)c1O | IIIB | MOLT-4/HUT-78 |  | 30 µg/mL
Cc1ccc(C(C)S(=O)(=O)c2c(C)ccc[n+]2[O-])c(C)c1 | IIIB | C8166 |  | 5 µg/mL
COCCOC(=S)Nc1ccc(Cl)c(C(=O)OC(C)C)c1 | IIIB | CEM |  | 0.573 µM
C[C@@H]1CN(C(=O)c2ccccc2)CCN1C(=O)C(=O)c1c[nH]c2ccccc12 | YU2 WT | Cf2Th-CD4+ CCR5+/293T |  | 9 µM
CSC(=Nc1ccc(Cl)c(C(=O)OC(C)C)c1)OC(C)C |  | CEM | RT-E138K | >30.13 µM
Cc1ccc(C)c(CS(=O)(=O)c2cccc[n+]2[O-])c1 | IIIB | CEM |  | 5.3 µg/mL
CC1=C(C(=O)Nc2ccc(Cl)c(OCC=C(Cl)Cl)c2)SCCO1 | IIIB | CEM |  | 1.2 µg/mL
CCC(C)OC(=O)c1cc(NC(=S)OC(C)C)ccc1Cl |  | CEM | RT-Y181C | 2.577 µM
Cc1ccc(C)c(CS(=O)(=O)c2ccccn2)c1 | IIIB | CEM |  | 4 µg/mL
Cc1cccc(C)c1N1C(=O)c2ccc(O)cc2C1=O | IIIB | CEM |  | >30 µM
COc1ccc(NC(=S)OC(C)C)cc1CC(=O)OC(C)C | IIIB | CEM |  | 0.025 µM
NCC1OC(n2cnc3c(N)ncnc32)C(OP(=O)(O)OCC2OC(n3cnc4c(N)ncnc43)C(OP(=O)(O)OCCOCn3cnc4c(N)ncnc43)C2O)C1O | IIIB | SupT1 + Sup-T1 |  | >100 µM
Cc1ccc(C)c(C(C)S(=O)(=O)c2ccc(C)c[n+]2[O-])c1 | IIIB | CEM | RT-Y181C | 60 µg/mL
O=C(O)c1cc(C(O)(c2ccc(O)c(C(=O)O)c2)c2ccc(O)c(C(=O)O)c2)ccc1O | IIIB | MOLT-4/HUT-78 |  | >100 µg/mL
CO/N=C/c1cc(NC(=S)OC(C)C)ccc1Cl |  | CEM | RT-L100I | 9.066 µM
O=C(O)c1cc(C(c2ccc(O)c(C(=O)O)c2)c2ccc(O)c(C(=O)O)c2)ccc1O | IIIB | MOLT-4/HUT-78 |  | 2 µg/mL
CC(C)OC(=S)Nc1ccc(Cl)c(COC(C)(C)C)c1 |  | CEM | RT-V106A | ≥31.66 µM
NCC1OC(n2cnc3c(N)ncnc32)C(OP(=O)(O)OCC2OC(n3cnc4c(N)ncnc43)C(OP(=O)(O)OCC3OC(n4cnc5c(N)ncnc54)C(O)C3O)C2O)C1O | IIIB | SupT1 + Sup-T1 |  | >100 µM
Cc1ccc(C)c(C(Cl)S(=O)(=O)c2cc(C)cc[n+]2[O-])c1 | RF | CEM |  | 1 µg/mL
Cc1cccc(C)c1N1C(=O)c2ccc(C(=O)O)cc2C1=O | IIIB | CEM |  | >27 µM
CC(C)OC(=S)Nc1ccc(Cl)c(OC(=O)C(C)C)c1 | IIIB | CEM |  | 28 µM
COc1ccc(C)cc1CS(=O)(=O)c1cccc[n+]1[O-] | MN | CEM |  | 40 µg/mL
Cc1sccc1C(=O)Nc1ccc(Cl)c(OCC=C(Cl)Cl)c1 | HEPT-resistant (RT Y188H) | CEM | RT-Y188H | 2 µg/mL
COc1ccc2c(c1)C(=O)N(c1c(C)cccc1C)C2=O | IIIB | CEM |  | >140 µM
O=C(NCc1ccc(F)cc1)c1nc(N2CCCCS2(=O)=O)c2cccnc2c1O | IIIB | C8166 |  | 0.0106 µM
CSCCOC(=S)Nc1ccc(Cl)c(C(=O)OC(C)C)c1 |  | CEM | RT-V106A | 15.81 µM
O=C1c2ccccc2C(=O)N1C12CC3CC(CC(C3)C1)C2 | IIIB | CEM |  | >704 µM
CCCOC(=O)c1cc(NC(=S)OC(C)C)ccc1Cl |  | CEM | RT-V106A | 2.533 µM
C=C(Cl)COc1cc(NC(=S)c2ccoc2C)ccc1Cl | TIBO R82150-resistant (RT L100I) | CEM | RT-L100I | 0.7 µg/mL
C/C=C\COc1cc(NC(=S)OC(C)C)ccc1Cl |  | CEM | RT-Y181C | 2 µM
Cc1cccc(C)c1N1C(=O)c2ccc(Cl)cc2C1=O | IIIB | CEM |  | >138 µM
CC[C@H](C)OC(=S)Nc1ccc(Cl)c(C(=O)OC(C)C)c1 | IIIB | CEM |  | 0.091 µM
COc1cc([C@@H]2c3cc(O)c(OC)cc3C(=O)[C@@H](C)[C@H]2C)ccc1O | IIIB | C8166 |  | 9.18 µg/mL
CCCCOC(=S)Nc1ccc(Cl)c(C(=O)OC(C)C)c1 |  | CEM | RT-V106A | 18.19 µM
O=C(O)C(=O)/C=C(\O)c1cccn1Cc1ccc(F)cc1 | BaL | PBMC |  | 0.0137 µM
CCC(CC)COC(=O)c1cc(NC(=S)OC(C)C)ccc1Cl |  | CEM | RT-Y181C | 6.985 µM
C=C(Cl)COc1cc(NC(=S)c2ccsc2C)ccc1C#N | HEPT-resistant (RT Y188H) | CEM | RT-Y188H | 2 µg/mL
CCCCOC(=O)c1cc(NC(=S)OC(C)C)ccc1Cl | IIIB | CEM |  | 0.127 µM
COc1cc([C@H]2O[C@@H](c3ccc(O)cc3)[C@H](C)[C@@H]2C)ccc1O | IIIB | C8166 |  | 9.55 µg/mL
C=CCO/N=C/c1cc(NC(=S)c2ccoc2C)ccc1Cl | IIIB | CEM |  | 0.011 µM
CC(=O)OCCOC(=O)c1cc(NC(=S)OC(C)C)ccc1Cl |  | CEM | RT-E138K | >27.79 µM

5 of the rows above, restated:

compound | strain or isolate | cell line | mutations | result
Cc1cccc(C)c1N1C(=O)c2ccc(Cl)cc2C1=O | IIIB | CEM |  | >138 µM
CC(=O)OCCOC(=O)c1cc(NC(=S)OC(C)C)ccc1Cl |  | CEM | RT-E138K | >27.79 µM
O=C1c2ccccc2C(=O)N1C12CC3CC(CC(C3)C1)C2 | IIIB | CEM |  | >704 µM
CCCCOC(=S)Nc1ccc(Cl)c(C(=O)OC(C)C)c1 |  | CEM | RT-V106A | 18.19 µM
CSc1ccc(NC(=S)OC(C)C)cc1C(=O)OC(C)C |  | CEM | RT-E138K | 2.229 µM